Consider one sequence from publication PMC8026907.

The data set addresses T1, CRP-MTB (cAMP receptor protein, wild type) (Mycobacterium tuberculosis) (UniProt P9WMH3).
T1 sequence (looked up, limits assumed): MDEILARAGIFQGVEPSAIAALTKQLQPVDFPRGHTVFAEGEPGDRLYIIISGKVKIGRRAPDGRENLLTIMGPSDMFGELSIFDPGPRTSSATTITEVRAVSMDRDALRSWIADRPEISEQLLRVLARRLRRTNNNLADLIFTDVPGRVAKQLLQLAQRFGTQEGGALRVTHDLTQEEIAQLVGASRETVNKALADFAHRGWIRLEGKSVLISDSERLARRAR
Put plainly: EMSA. Conditions: recombinant protein. For orientation: A gel shift assay detects complexes by their altered migration in electrophoresis.

Construct, isoform or probe ends are uncertain for at least one entry. At least one verdict rests on a figure or table, not on a statement of the authors. Where a protein sequence is shown, tags need not be part of it.

For “GCGCGTAGTGTGAACAAGCTCACATGCAAGCC (double strand) [SerC promoter 32-bp (EMSA)]”, the binding result is recorded as “binds”.
